Laboratory results published in paper PMC12391934, “Palladium-Catalyzed C–H Arylation of Quinoidal Scaffolds Through Homogeneous and Heterogeneous Pathways: Advancing Toward Trypanocidal Prototypes” (ACS Omega, 2025).

Assays:
[1] = system: trypomastigote forms of Trypanosoma cruzi (Y strain); assay: Trypanocidal assay, bloodstream trypomastigotes, 5% of blood at 4 °C; format: cell-based; conditions: first SI column, matches LC50/24 h divided by IC50/24 h at 5% of blood
Procedure: 5% of blood at 4 °C: For all the experiments, stock solutions of the compounds were prepared in dimethyl sulfoxide, with the final concentration of the solvent never exceeding 0.5%, concentration known to exert no toxicity to the parasite or host cells. Bloodstream trypomastigotes of Y strain were obtained from infected Swiss Webster mice at the peak of parasitemia by differential centrifugation process. The parasites (5 × 10^6 parasites per mL) plus 5% of blood were incubated at 4 °C for 24 h in 5% CO2 atmosphere in absence or presence of the compounds. […] At least three independent experiments were performed, and the mean and standard deviation were calculated. The standard drug Bz was used as control.

[2] = system: trypomastigote forms of Trypanosoma cruzi (Y strain); assay: Trypanocidal assay, bloodstream trypomastigotes, 0% of blood at 37 °C; format: cell-based; conditions: second SI column, matches LC50/24 h divided by IC50/24 h at 0% of blood
Procedure: 0% of blood at 37 °C: The experiments were performed with the Y strain of T. cruzi.^11 Stock solutions of the compounds were prepared in dimethylsulfoxide (DMSO), with the final concentration of the latter in the experiments never exceeding 0.1%. […] Bloodstream trypomastigotes were obtained from infected Albino Swiss mice at the peak of parasitemia by differential centrifugation. The parasites were resuspended to a concentration of 10 × 10^6 cells/mL in DMES medium. This suspension (100 µL) was added to the same volume of each of the compounds, which had been previously prepared at twice the desired final concentrations. The incubation was performed in 96-well microplates (Nunc Inc., Rochester, USA) at 37 °C for 24 h. Benznidazole (Lafepe, Brazil), the standard drug for treatment of chagasic patients, was used as control.

SMILES	SI [1]	SI [2]
COC(=O)c1ccc(C2=CC(=O)c3ccccc3C2=O)cc1 [3h]	0.67	–
COc1ccc(C2=CC(=O)c3ccccc3C2=O)cc1 [3e]	0.71	–
Cc1cccc(C2=CC(=O)c3ccccc3C2=O)c1 [3b]	0.37	–
O=C1C=C(c2ccc(C(F)(F)F)cc2)C(=O)c2ccccc21 [3g]	0.22	–
O=C1C=C(c2ccccc2)C(=O)c2ccccc21 [3d]	0.37	4.45
COc1cccc(C2=CC(=O)c3ccccc3C2=O)c1 [3f]	0.27	2.15
Cc1cc([N+](=O)[O-])ccc1C1=CC(=O)c2ccccc2C1=O [3i]	0.17	–
O=C1C=C(c2ccccc2)C(=O)c2c(O)cccc21 [3n]	0.47	9.27
Cc1ccc(C2=CC(=O)c3ccccc3C2=O)cc1 [3a]	0.68	–
Cc1ccc(C2=CC(=O)c3c(O)cccc3C2=O)cc1 [3l]	0.33	15.48
